This note sets out measurements from patent US20070036811A1.

This assay deals with HLA-A2 (human).

As for HIV-1 pol476-484 ([…]) (peptide), the C50 (peptide concentration for half maximal recovery of class I MHC) turned out to be 0.2 µM.
